Measured values from several laboratories, pooled; numbers as filed in NIAID ChemDB.

Shared fields: growth or infection tests; agent: HIV-1; endpoint: inhibition

Lines come from different laboratories, so protocols vary. Blank or dashed fields: not listed here. Percent inhibition refers to the dose given; in toxicity tests it is the harm to the cells.

| SMILES | setting | read by | cell line | strain or isolate | dose | value |
|---|---|---|---|---|---|---|
| Cc1cn([C@H]2C[C@H](N=[N+]=[N-])[C@@H](CO)O2)c(=O)[nH]c1=O | - | p24 / RT activity | PBMC | NL4-3 | 0.0137 µM | 90% |
| CC[C@@]1(O)C(=O)OCc2c1cc1n(c2=O)Cc2cc3ccccc3nc2-1 | - | RT activity | H9 | IIIB | 0.005 µM | 89% |
| Nc1c(S(=O)(=O)O)cc2c3c(cc(S(=O)(=O)O)cc13)C(=O)N(NC(=O)N/N=C/c1cccc(C=O)c1)C2=O | - | syncytia | MT-2 | - | 200 µM | 5% |
| COc1cc(C[C@H](C)[C@H](C)Cc2ccc(O)c(O)c2)ccc1O | - | p24 | PBMC | JR-CSF | 0.2 µg/mL | 90% |
| CC(C)(C)NC(=O)[C@@H]1CCCN1C(=O)[C@@H](O)[C@H](Cc1ccccc1)NC(=O)[C@H](CC(N)=O)NC(=O)c1cnc2ccccc2n1 | - | p24 | CEM | IIIB | 0.5 µM | 79% |
| O=C(O)c1cc(SSc2ccc([N+](=O)[O-])c(C(=O)O)c2)ccc1[N+](=O)[O-] | - | p24 | U-937 | - | 2500 µM | 88% |
| Cc1cc(O)cc2oc(=O)c3c(O)cc(O)cc3c12 | - | luciferase | SupT1 | NL4-3 | 300 µM | 6% |
| Cc1cn([C@H]2C[C@H](N=[N+]=[N-])[C@@H](CO)O2)c(=O)[nH]c1=O | - | p24 / ELISA | Monocytes + Monocyte | D747 | 0.0025 µg/mL | 90% |
| Nc1nc2c(ncn2CC(O)CCO)c(=O)[nH]1 | - | cytopathic effect / trypan blue | ATH8 | IIIB | 10 µM | 16% |
| CCCCCCCCCCCCCCCCOC[C@H](CCl)OP(=O)(O)OCC[N+](C)(C)C | - | RT activity | H9 | IIIB | 3 µM | 83% |
| Nc1ccn([C@H]2CC[C@@H](CO)O2)c(=O)n1 | - | syncytia | HT4 + HT4-6C | LAV-1 | 0.1 µM | 88% |
| O=C(O)P(=O)(O)O | 6 d | p24 / antigen | H9 | IIIB | 150 µM | 80% |
| COc1cc(O)c2c(c1)C(=O)c1c(cc3c(c1O)-c1c(cc(C)c(C(=O)N[C@H](C)C(=O)O)c1O)[C@H](O[C@@H]1O[C@H](C)[C@H](NC(C)=O)[C@H](O[C@@H]4OC[C@@H](O)[C@H](O)[C@H]4O)[C@H]1O)[C@H]3O)C2=O | - | antigen | MT-4 | IIIB | 10 µg/mL | <10% |
| Cc1cn([C@H]2C[C@H](N=[N+]=[N-])[C@@H](CO)O2)c(=O)[nH]c1=O | - | plaque count | HT4 + HT4-6C | BRU | 0.71 µM | 90% |
| Nc1nc2c(nc(Br)n2[C@@H]2C[C@H](CO)[C@H]2CO)c(=O)[nH]1 | - | cytopathic effect / trypan blue | ATH8 | IIIB | 100 µM | 12% |
| CC[C@H](C)C(=O)O[C@H]1C[C@@H](C)C=C2C=C[C@H](C)[C@H](CC[C@@H]3C[C@@H](O)CC(=O)O3)[C@H]21 | - | p24 | PBMC | 92RW009 R5X4 clinical variant | 50 µM | 75.3% |
| CC(=O)Nc1ccc(/C=C/c2ccc(N=C=S)cc2S(=O)(=O)O)c(S(=O)(=O)O)c1 | - | syncytia | JM | GB8 | 100 µg/mL | 100% |
| COc1cc(O)c2c(c1)C(=O)c1c(cc3c(c1O)-c1c(cc(C)c(C(=O)N[C@H](C)C(=O)O)c1O)[C@H](O[C@@H]1O[C@H](C)[C@H](O)[C@H](O[C@@H]4OC[C@@H](OS(=O)(=O)O)[C@H](O)[C@H]4O)[C@H]1O)[C@H]3O)C2=O | - | antigen | MT-4 | IIIB | 30 µg/mL | 47% |
| CCCCCCCCCCCCCC(=O)OC[C@@H](COP(=O)(O)OC[C@@H]1CC[C@H](n2ccc(N)nc2=O)O1)OC(=O)CCCCCCCCCCCCC | - | ELISA | MT-4 | IIIB | 10 µM | 97% |
| Nc1ccn([C@H]2CC[C@@H](CO)O2)c(=O)n1 | - | cytopathic effect / trypan blue | ATH8 | IIIB | 0.2 µM | 100% |
| COc1cc(O)c2c(c1)C(=O)c1c(cc3c(c1O)-c1c(cc(C)c(C(=O)N[C@H](C)C(=O)O)c1O)[C@H](O[C@@H]1O[C@H](CO)[C@H](NC(C)=O)[C@H](O)[C@H]1O)[C@H]3O)C2=O | - | antigen | MT-4 | IIIB | 10 µg/mL | <10% |
| COc1ccccc1CN[C@H]1C2CCN(CC2)[C@H]1C(c1ccccc1)c1ccccc1 | - | RT activity | Macrophage + Monocytes/macrophages | CSF-8 Primary R5 isolate | 0.1 µM | 80% |
| O=Nc1c(-c2c(O)[nH]c3ccccc23)[nH]c2ccccc12 | - | p24 | PBMC | GP120-R305K P308H SCH-1 resistant | 1 µM | 81.5% |
| Nc1ccn([C@H]2CC[C@@H](CO)O2)c(=O)n1 | - | cytopathic effect / trypan blue | ATH8 | IIIB | 0.2 µM | 58% |
| Nc1ncnc2c1ncn2[C@@H]1C[C@H](CO)[C@H]1CO | - | cytopathic effect / trypan blue | ATH8 | IIIB | 100 µM | 76% |
| CC(C)(C)NC(=O)[C@@H]1C[C@@H]2CCCC[C@@H]2CN1C[C@@H](O)[C@H](Cc1ccccc1)NC(=O)[C@H](CC(N)=O)NC(=O)c1ccc2ccccc2n1 | - | p24 | Macrophage + Monocytes/macrophages | BaL | 0.08 µM | 65% |
| OC[C@H]1O[C@@H](n2cnc3c2NC=NC[C@H]3O)C[C@@H]1O | - | cytopathic effect | ATH8 | - | 0.05 µM | 0% |
| Nc1nc2c(ncn2[C@H]2CC[C@@H](CO)O2)c(=O)[nH]1 | - | ELISA | MT-4 | IIIB | 10 µM | 97% |
| O=C1N(Cc2ccc(CO)cc2)[C@H](Cc2ccccc2)[C@H](O)[C@@H](O)[C@@H](Cc2ccccc2)N1Cc1ccc(CO)cc1 | - | p24 | PBMC | H clinical isolate | 0.18 µM | 90% |
| c1cc(CN2CCCNCCNCCCNCC2)ccc1CN1CCCNCCNCCCNCC1 | - | p24 | PBMC | CM1 CLADE C R5 | 0.1 µM | 8% |
| Nc1ncnc2c1ncn2[C@H]1CC[C@@H](CO)O1 | - | virus yield | CEM | LAV-1 | 10 µM | 99.9% |
| C[C@@H]1[C@H](O)[C@@H](C)/C=C/C=C/C=C/C=C/C=C/C=C/C=C/[C@H](O[C@@H]2O[C@H](C)[C@@H](O)[C@H](N)[C@@H]2O)CC2O[C@](O)(CC(O)C(O)CCC(O)CC(O)CC(O)CC(=O)O[C@H]1C)CC(O)C2C(=O)O.O=S(=O)(O)O | - | fluorescence | PHA-PBMC + PBMC | KK-1 | 3.9 µg/mL | 76.5% |
| O=c1[nH]cnc2c1ncn2C=C=CCO | - | cytopathic effect / trypan blue | ATH8 | IIIB | 1000 µM | 2% |
| CC(=O)[C@H]1CC[C@H]2[C@@H]3CCC4=CC(=O)CC[C@]4(C)[C@H]3CC[C@]12C | - | p24 | U-937 | LTR-CAT | 0.1 µM | 37.6% |
| Cc1cn([C@H]2C[C@H](N=[N+]=[N-])[C@@H](CO)O2)c(=O)[nH]c1=O | - | syncytia | HT4 + HT4-6C | LAV-1 | 0.00316 µM | 21% |
| Nc1ncnc2c1ncn2C=C=CCCl | - | cytopathic effect / trypan blue | ATH8 | IIIB | 100 µM | 0% |
| CN=C1CN=C(c2ccc[nH]2)c2cc(Cl)ccc2N1 | chronic infection | p24 | CEM/1(N1T-E) + CEM | N1T-E | 0.8 µM | 90% |
| Nc1nc2c(ncn2C=C=CCO)c(=O)[nH]1 | - | cytopathic effect / trypan blue | ATH8 | IIIB | 500 µM | 0% |
| Nc1ccn([C@H]2CC[C@@H](CO)O2)c(=O)n1 | - | ELISA | MT-4 | IIIB | 10 µM | 95% |
| COc1cc(O)c2c(c1)C(=O)c1c(cc3c(c1O)-c1c(cc(C)c(C(=O)N[C@H](C)C(=O)O)c1O)[C@H](O[C@@H]1O[C@H](C)[C@H](N)[C@H](O[C@@H]4OC[C@@H](O)[C@H](O)[C@@H]4O)[C@H]1O)[C@H]3O)C2=O | - | syncytia | MOLT-4 | IIIB | 10 µg/mL | 100% |
| O=c1ccn([C@@H]2C[C@H](CO)[C@H]2CO)c(=O)[nH]1 | - | cytopathic effect / trypan blue | ATH8 | IIIB | 500 µM | 5% |
| [B-]P(=O)([O-])CC[C@H]1O[C@@H](n2cc(C)c(=O)[nH]c2=O)C[C@@H]1N=[N+]=[N-] | - | β-galactosidase | MAGI | NL4.3 p24 antigen | 400 µM | 0% |
| CC(C)=CCOc1c2occc2cc2ccc(=O)oc12 | - | luciferase | MT-2 | NL4-3 Recombinant | 25 µM | 60% |
| CCCCCCCCCCCCCC(=O)OC[C@@H](COP(=O)(O)OC[C@@H]1CC[C@H](n2cc(C)c(=O)[nH]c2=O)O1)OC(=O)CCCCCCCCCCCCC | - | ELISA | MT-4 | IIIB | 10 µM | 97% |
| CNc1ncnc2c1ncn2[C@@H]1C[C@H](CO)[C@H]1CO | - | cytopathic effect / trypan blue | ATH8 | IIIB | 500 µM | 14% |

5 of the rows above, restated:

{"SMILES": "O=C1N(Cc2ccc(CO)cc2)[C@H](Cc2ccccc2)[C@H](O)[C@@H](O)[C@@H](Cc2ccccc2)N1Cc1ccc(CO)cc1", "read by": "p24", "cell line": "PBMC", "strain or isolate": "H clinical isolate", "dose": "0.18 µM", "value": "90%"}
{"SMILES": "COc1cc(C[C@H](C)[C@H](C)Cc2ccc(O)c(O)c2)ccc1O", "read by": "p24", "cell line": "PBMC", "strain or isolate": "JR-CSF", "dose": "0.2 µg/mL", "value": "90%"}
{"SMILES": "O=C(O)c1cc(SSc2ccc([N+](=O)[O-])c(C(=O)O)c2)ccc1[N+](=O)[O-]", "read by": "p24", "cell line": "U-937", "dose": "2500 µM", "value": "88%"}
{"SMILES": "COc1cc(O)c2c(c1)C(=O)c1c(cc3c(c1O)-c1c(cc(C)c(C(=O)N[C@H](C)C(=O)O)c1O)[C@H](O[C@@H]1O[C@H](C)[C@H](O)[C@H](O[C@@H]4OC[C@@H](OS(=O)(=O)O)[C@H](O)[C@H]4O)[C@H]1O)[C@H]3O)C2=O", "read by": "antigen", "cell line": "MT-4", "strain or isolate": "IIIB", "dose": "30 µg/mL", "value": "47%"}
{"SMILES": "Cc1cc(O)cc2oc(=O)c3c(O)cc(O)cc3c12", "read by": "luciferase", "cell line": "SupT1", "strain or isolate": "NL4-3", "dose": "300 µM", "value": "6%"}